Results on two substances are retold here after patent US20240398893A1 (priority 2021, published 2024).

The data set in a line: peptide made by a vendor. Conditions: whole synthesis.

With “DLGDISGINASVVNIQKEIDRLNEVAKNLNESLIDLQELGSGSGC(CH2CONH(PEG)4CH2COOChol)-NH2”, the outcome is “exhibited poor stability, and cannot be purified to give a high-purity sample”. The same measure for “DLGDISGINASVVNIQKEIDRLNEVAKNLNESLIDLQELGSGSGC(CH2COOChol)-NH2”: “exhibited poor stability, and cannot be purified to give a high-purity sample”.
